Pooled drug test results. Numbers come from NIAID ChemDB, via PubChem.

All rows: growth or infection tests; species: Candida albicans; endpoint: MIC

a–b is a range or a potency band.

{"structure": "CCCCCOc1ccc(-c2cc(-c3ccc(C(=O)N[C@H]4C[C@@H](O)[C@@H](O)NC(=O)[C@@H]5[C@@H](O)[C@@H](C)CN5C(=O)[C@H]([C@H](O)CC(N)=O)NC(=O)[C@H]([C@H](O)[C@@H](O)c5ccc(O)c(OS(=O)(=O)O)c5)NC(=O)[C@@H]5C[C@@H](O)CN5C(=O)[C@H]([C@@H](C)O)NC4=O)cc3)no2)cc1", "strain": "2 isolates", "value": "0.05 µg/mL"}
{"structure": "Cn1c(-c2ccccn2)noc1=S", "value": "0.51 µg/mL"}
{"structure": "COc1ccccc1C(=O)Nc1ccc(C)cc1O", "value": "100 µM"}
{"structure": "CCn1c(-c2ccncc2)noc1=S", "value": "0.95 µg/mL"}
{"structure": "O=C(Nc1cc([N+](=O)[O-])ccc1O)c1ccc([N+](=O)[O-])cc1", "value": "50 µg/mL"}
{"structure": "Cc1ccc(CNC(=S)SCCN(C)C)cc1", "value": "10 µg/mL"}
{"structure": "O=[N+]([O-])c1ccc(Cc2nc3cc([N+](=O)[O-])ccc3o2)cc1", "value": "12.5 µg/mL"}
{"structure": "O=C(Cc1ccc(Br)cc1)Nc1ccc([N+](=O)[O-])cc1O", "value": "100 µM"}
{"structure": "CN(C)CCSC(=S)NCc1ccc(-c2ccccc2)cc1", "value": "100 µg/mL"}
{"structure": "O=C(Cc1ccc(Cl)cc1)Nc1cc([N+](=O)[O-])ccc1O", "value": "12.5 µg/mL"}
{"structure": "CN1CCN(CCSC(=S)NCc2ccc(Cl)c(Cl)c2)CC1", "value": "100 µg/mL"}
{"structure": "CCCCCCCCOc1ccc(N2CCN(c3ccc(C(=O)N[C@H]4CCCNC(=O)[C@@H]5C[C@H](N)CN5C(=O)[C@H]([C@@H](C)O)NC(=O)[C@H](CCc5ccc(O)cc5)NC(=O)[C@@H]5C[C@@H](O)CN5C(=O)[C@H]([C@@H](C)O)NC4=O)cc3)CC2)cc1", "strain": "ATCC 10231", "value": "0.2 µg/mL"}
{"structure": "CN(C)CCSC(=S)NCc1ccc(Cl)cc1", "value": "20 µg/mL"}
{"structure": "Cc1ccc(NC(=O)c2ccc(C(C)(C)C)cc2)c(O)c1", "value": "25 µM"}
{"structure": "CN(C)CCSC(=S)NCc1ccc(F)cc1", "value": "10 µg/mL"}
{"structure": "Cc1ccc(C(=O)Nc2ccc(C)cc2O)c(C)c1", "value": "25 µM"}
{"structure": "CCCCCCCCCCCCC/C=C\\C1=N[C@H]1C(=O)OC", "strain": "ATCC 14503", "value": "8 µg/mL"}
{"structure": "COc1ccccc1C(=O)Nc1ccc([N+](=O)[O-])cc1O", "value": "25 µM"}
{"structure": "CCC(C)n1ncn(-c2ccc(N3CCN(c4ccc(OC[C@H]5CO[C@](Cn6cncn6)(c6ccc(Cl)cc6Cl)O5)cc4)CC3)cc2)c1=O", "strain": "E81113", "value": "1.56 µg/mL"}
{"structure": "COC(=O)C1OC2(CCCC(OC(C)=O)C(C)C/C=C/c3ccccc3)OC(C(=O)O)(C(OC(=O)CCCCCC/C=C/c3ccccc3)C2O)C1(O)C(=O)O", "strain": "SC", "value": ">50 µg/mL"}
{"structure": "CC(=O)[C@@H]1[C@H](O)[C@@H](O)C(=O)C=C[C@H]1C", "value": "50 µg/mL"}
{"structure": "Cn1c(-c2ccccc2)nsc1=O", "value": "0.13 µg/mL"}
{"structure": "CC(C)(C)c1ccc(C(=O)Nc2cc([N+](=O)[O-])ccc2O)cc1", "value": "12.5 µg/mL"}
{"structure": "CCCn1c(-c2ccccn2)noc1=S", "value": "0.45 µg/mL"}
{"structure": "CCCCCCCCCC/C=C\\C1=N[C@H]1C(=O)OC", "strain": "96-489", "value": "2–3 µg/mL"}
{"structure": "CN(C)CCSC(=S)NCc1ccc(Br)cc1", "value": "15 µg/mL"}
{"structure": "S=c1onc(-c2ccccn2)n1-c1ccccc1", "value": "0.39 µg/mL"}
{"structure": "CCCCCCCCCOc1ccc(N2CCN(c3ccc(C(=O)N[C@H]4CCCNC(=O)[C@@H]5C[C@H](N)CN5C(=O)[C@H]([C@@H](C)O)NC(=O)[C@H](CCc5ccc(O)cc5)NC(=O)[C@@H]5C[C@@H](O)CN5C(=O)[C@H]([C@@H](C)O)NC4=O)cc3)CC2)cc1", "strain": "ATCC 10231", "value": "0.2 µg/mL"}
{"structure": "Cc1ccc(-n2c(-c3ccncc3)nsc2=O)cc1", "value": "0.09 µg/mL"}
{"structure": "CCCCCCCCCCCCC/C=C/C1=N[C@H]1C(=O)OC", "strain": "UCD-FR1", "value": "8 µg/mL"}
{"structure": "Cc1ccc(NC(=O)c2ccco2)c(O)c1", "value": "25 µM"}
{"structure": "C=C1CO[C@H]2[C@@H](C)OC(OC[C@@]34C[C@H]5[C@H](C)CC[C@@H]5[C@@]5(C=O)C[C@@H]3C=C(C(C)C)[C@@]45C(=O)O)C[C@@H]12", "strain": "Isolate 4711E fluconazole-susceptible", "value": "<0.01 µg/mL"}
{"structure": "Cc1c(O)cccc1C(=O)N[C@@H](CSc1ccccc1)[C@H](O)CN1C[C@H]2CCCC[C@H]2C[C@H]1C(=O)NC(C)(C)C", "strain": "I170A", "value": ">64 µg/mL"}
{"structure": "CCCCCOc1ccc(-c2ccc(-c3ccc(CN[C@H]4CCCNC(=O)[C@@H]5C[C@H](N)CN5C(=O)[C@H]([C@@H](C)O)NC(=O)[C@H](CCc5ccc(O)cc5)NC(=O)[C@@H]5C[C@@H](O)CN5C(=O)[C@H]([C@@H](C)O)NC4=O)cc3)cc2)cc1", "strain": "ATCC 10231", "value": "0.39 µg/mL"}
{"structure": "Cn1c(-c2ccccn2)nsc1=O", "value": "0.06 µg/mL"}
{"structure": "Cc1ccc(C)c(C(=O)Nc2ccc([N+](=O)[O-])cc2O)c1", "value": "25 µM"}
{"structure": "CCCCCCCCCCCCCC#CC1=N[C@H]1C(=O)OC", "strain": "96-489", "value": "2 µg/mL"}
{"structure": "CCCCCOc1ccc(-c2ccc(-c3ccc(C(=O)N[C@H]4CCCNC(=O)[C@@H]5C[C@H](N)CN5C(=O)[C@H](CCCN=C(N)N)NC(=O)[C@H](CCc5ccc(O)cc5)NC(=O)[C@@H]5C[C@@H](O)CN5C(=O)[C@H]([C@@H](C)O)NC4=O)cc3)cc2)cc1", "strain": "ATCC 38247", "value": "0.78 µg/mL"}
{"structure": "CCC(NC(=S)SCCN(C)C)c1ccccc1", "value": "20 µg/mL"}
{"structure": "O=C(Nc1cc([N+](=O)[O-])ccc1O)c1ccccc1", "value": "12.5 µg/mL"}
{"structure": "CCCCCOc1ccc(-c2cc(-c3ccc(C(=O)N[C@H]4C[C@@H](O)[C@@H](O)NC(=O)[C@@H]5[C@@H](O)[C@@H](C)CN5C(=O)[C@H]([C@H](O)CC(N)=O)NC(=O)[C@H]([C@H](O)[C@@H](O)c5ccc(O)c(OS(=O)(=O)O)c5)NC(=O)[C@@H]5C[C@@H](O)CN5C(=O)[C@H]([C@@H](C)O)NC4=O)cc3)no2)cc1", "strain": "142-5609A", "value": "0.0625 µg/mL"}

Neighbouring rows are from separate reports.